Data reported in article PMC10792529 (2023).

Target: D180A Ralstonia solanacearum Isocyanide Hydratase (Ralstonia solanacearum)
Experiment: crystal structure; wild-type RsICH (0.74 Å) and D180A RsICH (1.00 Å)

Q: Which stoichiometry N does the source give for “D180A Ralstonia solanacearum Isocyanide Hydratase (enzyme)” here?
A: 2
